PubChem BioAssay AID624099 – ICCB-Longwood, 2012
Purpose: 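Knock-downs relieving repression by E2 of an HPV18 LCR luciferase reporter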 (primary screen). Cell system: human C33A cervical carcinoma cells (HPV-negative) stably expressing BPV1 E2 and an HPV18 LCR luciferase reporter. Knock-down reagent: siRNA pool against human genes, 40 nM. Duration: 72 h. Detection: 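HPV18 LCR reporter light per well, converted to plate-wise z-scores that exclude control wells, and averaged over triplicate plates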. Scale: mean z-score and z-score: higher = stronger reporter signal, weaker E2 silencing. Active means: 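Mean z ≥ 2 together with z ≥ 2 in two or more of the three replicates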.
The deposit covers about 21,000 reagents; below is a part drawn at random. 497 of them (2.4%) count as active. 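Higher z means weaker E2 silencing; only reporter increases were scored, and knock-downs that hurt cell survival may mask genuine repressor factors.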

With knock-down of LOC643348 (ankyrin repeat domain containing 26 pseudogene) the results were mean z-score -0.45; z-score, replicate A = -0.54; z-score, replicate B = -0.24; z-score, replicate C = -0.57; inactive.
CHIAP2 (chitinase, acidic pseudogene 2) scored mean z-score 0.35; z-score, replicate A = 0.01; z-score, replicate B = 0.39; z-score, replicate C = 0.65; inactive.
AFAP1 (actin filament associated protein 1) showed mean z-score -0.52; z-score, replicate A = -0.29; z-score, replicate B = -0.57; z-score, replicate C = -0.71; inactive.
Knock-down of NBL1 (NBL1, DAN family BMP antagonist) gave: mean z-score -0.1; z-score, replicate A = -0.14; z-score, replicate B = -0.06; z-score, replicate C = -0.09; inactive.
Silencing of NUP205 (nucleoporin 205) resulted in: mean z-score -0.56; z-score, replicate A = -0.29; z-score, replicate B = -0.53; z-score, replicate C = -0.87; inactive.
For PAK1 (p21 (RAC1) activated kinase 1), the values are mean z-score 0.64; z-score, replicate A = 0.58; z-score, replicate B = 0.62; z-score, replicate C = 0.72; inactive.
Against RSAD1 (radical S-adenosyl methionine domain containing 1) the deposit lists mean z-score 0.07; z-score, replicate A = -0.11; z-score, replicate B = 0.37; z-score, replicate C = -0.06; inactive.
Silencing of CAMK2G (calcium/calmodulin dependent protein kinase II gamma) gave: mean z-score -0.47; z-score, replicate A = -1.11; z-score, replicate B = -0.11; z-score, replicate C = -0.18; inactive.
With knock-down of ENOSF1 (enolase superfamily member 1), the screen gave mean z-score 1.17; z-score, replicate A = 1.05; z-score, replicate B = 1.08; z-score, replicate C = 1.37; inactive.
After knock-down of STX12 (syntaxin 12), the record shows mean z-score 0.62; z-score, replicate A = 0.54; z-score, replicate B = 0.69; z-score, replicate C = 0.63; inactive.
For SNRPA1 (small nuclear ribonucleoprotein polypeptide A') the deposit lists mean z-score -0.26; z-score, replicate A = -0.19; z-score, replicate B = -0.41; z-score, replicate C = -0.17; inactive.
After knock-down of VKORC1 (vitamin K epoxide reductase complex subunit 1) the results were mean z-score 0.65; z-score, replicate A = 0.55; z-score, replicate B = 0.59; z-score, replicate C = 0.8; inactive.
LOC387706 (retired record) scored mean z-score 0.29; z-score, replicate A = 0.72; z-score, replicate B = -0.17; z-score, replicate C = 0.34; inactive.
Depletion of GPATCH4 (G-patch domain containing 4 (gene/pseudogene)) gave: mean z-score 0.64; z-score, replicate A = 0.76; z-score, replicate B = 0.47; z-score, replicate C = 0.7; inactive.
GYG2 (glycogenin 2) gave mean z-score 1.14; z-score, replicate A = 1.3; z-score, replicate B = 1.17; z-score, replicate C = 0.94; inactive.
For MICALL2 (MICAL like 2), the values are mean z-score -0.2; z-score, replicate A = -1.4; z-score, replicate B = 0.55; z-score, replicate C = 0.24; inactive.

Already shown: 4 of the entries above.
NBL1 (NBL1, DAN family BMP antagonist) — mean z-score: -0.1; z-score, replicate A: -0.14; z-score, replicate B: -0.06; z-score, replicate C: -0.09; call: inactive
NUP205 (nucleoporin 205) — mean z-score: -0.56; z-score, replicate A: -0.29; z-score, replicate B: -0.53; z-score, replicate C: -0.87; call: inactive
PAK1 (p21 (RAC1) activated kinase 1) — mean z-score: 0.64; z-score, replicate A: 0.58; z-score, replicate B: 0.62; z-score, replicate C: 0.72; call: inactive
RSAD1 (radical S-adenosyl methionine domain containing 1) — mean z-score: 0.07; z-score, replicate A: -0.11; z-score, replicate B: 0.37; z-score, replicate C: -0.06; call: inactive

The list goes on.
LOC387873 (retired record) scored mean z-score 1.53; z-score, replicate A = 1.72; z-score, replicate B = 1.47; z-score, replicate C = 1.4; inactive.
Against SRD5A2 (steroid 5 alpha-reductase 2) the deposit lists mean z-score -0.67; z-score, replicate A = -0.75; z-score, replicate B = -0.95; z-score, replicate C = -0.29; inactive.
Knock-down of SLC39A6 gave: mean z-score 0.59; z-score, replicate A = 0.55; z-score, replicate B = 0.61; z-score, replicate C = 0.61; inactive.
CGRRF1 (cell growth regulator with ring finger domain 1) scored mean z-score 0.82; z-score, replicate A = 0.58; z-score, replicate B = 0.72; z-score, replicate C = 1.15; inactive.
Depletion of IDH3A (isocitrate dehydrogenase (NAD(+)) 3 catalytic subunit alpha) resulted in: mean z-score 0.29; z-score, replicate A = 0.45; z-score, replicate B = 0.15; z-score, replicate C = 0.26; inactive.
RALGAPA2 (Ral GTPase activating protein catalytic subunit alpha 2) gave mean z-score -0.32; z-score, replicate A = -0.46; z-score, replicate B = -0.17; z-score, replicate C = -0.33; inactive.
TOMM40 (translocase of outer mitochondrial membrane 40) showed mean z-score -0.76; z-score, replicate A = -0.8; z-score, replicate B = -0.96; z-score, replicate C = -0.53; inactive.
After knock-down of ZDBF2 (zinc finger DBF-type containing 2), the screen gave mean z-score 0.4; z-score, replicate A = 0.74; z-score, replicate B = 0.57; z-score, replicate C = -0.11; inactive.
After knock-down of MBP (myelin basic protein), the record shows mean z-score 1.48; z-score, replicate A = 1.38; z-score, replicate B = 1.56; z-score, replicate C = 1.51; inactive.
LYRM7 (LYR motif containing 7) scored mean z-score -1.69; z-score, replicate A = -1.98; z-score, replicate B = -1.5; z-score, replicate C = -1.59; inactive.
With knock-down of PRR27 (proline rich 27) the results were mean z-score 0.45; z-score, replicate A = 0; z-score, replicate B = 0.83; z-score, replicate C = 0.52; inactive.
